Pooled drug test results. Numbers come from NIAID ChemDB, via PubChem.

Common to all: growth or infection tests; organism: Mycobacterium tuberculosis

MIC bound comes from a single tested concentration.

smiles	tested at	read-out	setting	read by	changes	strain	result
CC(C)C1CCC(=O)c2c1ncc1c2C(=O)C2=C(C1=O)C1CCC2C1		EC90		luminescence	pSMT1 luciferase reporter plasmid	H37Rv	24.66 µg/mL
N#[N+]c1c([O-])ccc2nc3ccccc3nc12	12.5 µg/mL	inhibition		BACTEC		H37Rv	99%
C[C@H]1[C@H](c2ccc(O)cc2)c2cc(O)c(O)cc2C[C@H]1C		MIC		resazurin		H37Rv	>50 µg/mL
COc1cc2c(cc1O)CCN[C@]21CS(=O)[C@@H]2c3c(C(C)=O)c(C)c4c(c3C(COC1=O)N1C2[C@H]2c3c(cc(O)c(OC)c3O)C[C@@H]([C@@H]1C#N)N2C)OCC4		MIC					2 µg/mL
Cc1ccc2c(c1)[n+](=O)c(C(=O)Nc1ccccc1)c(C)n2[O-]		MIC				H37Rv	>6.25 µg/mL
Cc1ccc(OC(=O)c2ccc(NC(=O)c3ccccc3C(=O)O)cc2O)cc1		MIC				H37Rv	0.0313 µg/mL
CCOC(=O)C1=C(C(=O)c2ccc(OC)cc2)C(c2ccc(OC)c(OC)c2)C(C(=O)c2ccc(OC)cc2)=C(C(=O)OCC)N1		MIC bound		BACTEC		H37Rv	>12.5 µg/mL
CCCCSc1nc2ccccc2[nH]1		MIC				My 331/88	>125 µM
COc1cc(O)c2c(=O)c(OC)c(-c3ccc(O)cc3)oc2c1O		MIC		resazurin		H37Rv	>50 µg/mL
CCOC(=O)c1ccc(NC(=O)c2ccccc2C(=O)O)cc1O		MIC				H37Rv	>2 µg/mL
Cc1cc(/C=N/Nc2ccc3cccc(O)c3n2)c(O)c2ncccc12		MIC		BACTEC		H37Rv	≥12.5 µg/mL
COc1cc(O)c2c(=O)c(OC)c(-c3ccc(O)cc3)oc2c1OC		MIC	multidrug-resistant	resazurin		Clinical isolates	25–50 µg/mL
CC(C)Cn1c(=O)c2c3c(cnc2n(CC(C)C)c1=O)C(=O)C1=C(C3=O)C2CCC1C2		EC90		luminescence	pSMT1 luciferase reporter plasmid	H37Rv	5.3 µg/mL
Cc1ccc2c(c1)[n+](=O)c(C(=O)N1CCN(c3ccc([N+](=O)[O-])cc3)CC1)c(C)n2[O-]	6.25 µg/mL	inhibition				H37Rv	0%
CO[C@H]1/C=C/O[C@@]2(C)Oc3c(C)c(O)c4c(O)c(c(/C=N/N5CCN(C)CC5)c(O)c4c3C2=O)NC(=O)/C(C)=C\C=C\[C@H](C)[C@H](O)[C@@H](C)[C@@H](O)[C@@H](C)[C@H](OC(C)=O)[C@@H]1C		MIC		resazurin		H37Rv	1 µg/mL
COC(=O)c1ccc(N)cc1O		MIC				H37Rv	20 µg/mL
O=c1cc(O)c1=O	12.5 µg/mL	inhibition		BACTEC		H37Rv	10%
Clc1ccc(CSc2nc3ccccc3[nH]2)cc1		MIC				My 331/88	>32 µM
Cc1nn(-c2ccccc2)c(Cl)c1-c1nc(N)nc2c1c(C)nn2-c1cc(Cl)c(S(=O)(=O)O)cc1Cl		MIC		resazurin		H37Rv	3.25 µg/mL
NCC[C@H](O)C(=O)N[C@@H]1C[C@H](N)[C@@H](O[C@H]2O[C@H](CN)[C@@H](O)[C@H](O)[C@H]2O)[C@H](O)[C@H]1O[C@H]1O[C@H](CO)[C@@H](O)[C@H](N)[C@H]1O		MIC		broth dilution / resazurin		MDR22	2 µg/mL
COc1ccc(N2CCN(C(=O)c3c(C)n([O-])c4ccccc4[n+]3=O)CC2)cc1	6.25 µg/mL	inhibition				H37Rv	0%
CCCCn1c(=O)c2c3c(cnc2n(CCCC)c1=O)C(=O)C1=C(C3=O)C2CCC1C2		EC99		luminescence	pSMT1 luciferase reporter plasmid	H37Rv	7.23 µg/mL
S=c1[nH]c2ccccc2[nH]1		MIC				My 331/88	500 µM
CC1=NN(C(=O)CC(=O)N(C(=O)c2ccccc2Cl)c2ccc(C)cc2)C(=O)C1N=Nc1ccc([N+](=O)[O-])cc1		MIC bound		BACTEC		H37Rv	>12.5 µg/mL
C=C(CC[C@@H](C)[C@H]1CC[C@@H]2[C@H]3[C@@H](OC(C)=O)C=C4C[C@@H](O)CC[C@]4(CO)[C@@H]3CC[C@@]21C)C(C)C		MIC					12.5 µg/mL
CCc1nc(NCCc2ccccc2)c2cc(C)sc2n1		EC50		resazurin		Erdman	0.15 µM
CN1CCN(C(=S)N(C)C(=O)c2ccco2)CC1		MIC bound		BACTEC		H37Rv	>12.5 µg/mL
O=C1NC(NNC(=O)c2ccncc2)=N/C1=C\c1ccc(Cl)cc1		MIC				Erdman	12.5 µg/mL
N#Cc1nc2cc(Cl)ccc2nc1N	12.5 µg/mL	inhibition				H37Rv	23%
CC1=C(C)C(=O)C(CC2=C(C)C(=O)C(C)=C(C)C2=O)=C(C)C1=O	128 µg/mL	inhibition		BACTEC		H37Rv	100%
O=C1NC(NNC(=O)c2ccncc2)=N/C1=C\c1ccccc1Cl		MBC				H37Rv	50 µg/mL
CCc1nc(NCCCc2ccccc2)c2cc(C)sc2n1		EC50		resazurin		Erdman	0.083 µM
COC1=C(Br)CC2(OC=C1Br)ON=C(C(=O)NCCCOc1c(Br)cc(CCN)cc1Br)[C@@H]2O		EC50					30 µM
CCCc1cc(=O)oc2c3c(c4c(c12)OC(C)(C)C=C4)O[C@@H](C)[C@H](C)[C@@H]3O	12.5 µg/mL	inhibition		BACTEC		H37Rv	99%
[O-][n+]1ccccc1SSc1cccc[n+]1[O-]		MIC90		resazurin		H37Rv	<0.039 µg/mL
O=C1c2ccccc2C(=O)c2c1cc(O)c(O)c2O	128 µg/mL	inhibition		BACTEC		H37Rv	99%
Brc1ccc(CSc2nc3ccccc3[nH]2)cc1		MIC				My 331/88	>125 µM
Nc1ncnc2c1ncn2[C@H]1O[C@H](CO)[C@@H](O)[C@@H]1O		MIC bound		BACTEC		H37Rv	>12.5 µg/mL
CCN(CC)CCNC(=O)c1ccc(Cl)cc1		MIC				N353	50 µg/mL
Cc1cc2c(cc1C)[n+](=O)c(C(=O)NC(C)(C)C)c(C)n2[O-]	6.25 µg/mL	inhibition				H37Rv	0%
CCCOC(=O)c1ccc(NC(=O)c2ccccc2C(=O)O)cc1O		MIC				H37Rv	>2 µg/mL
C1CCNC1.S=C(S)N1CCCC1		MIC				RMP-R	0.4 µg/mL
Cc1cc2c(cc1C)[n+](=O)c(C(=O)N1CCN(c3ccc([N+](=O)[O-])cc3)CC1)c(C)n2[O-]	6.25 µg/mL	inhibition				H37Rv	0%
C=CN(O)C[C@@H](CCCC)C(=O)N[C@H](C(=O)N(C)C)C(C)(C)C		MIC90				H37Rv	0.2 µg/mL
O=C1NC(Nc2ccc(Cl)cc2)=N/C1=C\c1ccc(Cl)cc1Cl		MIC				H37Rv	>12.5 µg/mL
NC(CCCC(N)P(=O)(O)c1ccccc1)P(=O)(O)c1ccccc1		MIC bound		BACTEC		H37Rv	>12.5 µg/mL
CN(C)c1ccc(O)c2c1C[C@H]1C[C@H]3[C@H](N(C)C)C(=O)C(C(N)=O)=C(O)[C@@]3(O)C(=O)C1=C2O		MBC					>64 µg/mL
CCCOC(=O)c1ccc(N)cc1O		MIC				H37Rv	10 µg/mL
Nc1nnc2nc(C(C(=O)c3cccc(O)c3)c3nc4nnc(N)n4[nH]c3=O)c(=O)[nH]n12		MIC bound		BACTEC		H37Rv	>12.5 µg/mL
CC(C)=CCC[C@H](C)[C@H]1CC[C@H](C)c2c1cc(C)c1ncoc21		MIC					12.5 µg/mL
CCN(CC)CCNC(=O)c1cccc([N+](=O)[O-])c1		MIC				H37Rv	50 µg/mL
Cn1c(=O)c2c3c(cnc2n(C)c1=O)C(=O)C1=C(C3=O)C2CCC1C2		EC90		luminescence	pSMT1 luciferase reporter plasmid	H37Rv	5.87 µg/mL
CO[C@H]1/C=C/O[C@@]2(C)Oc3c(C)c(O)c4c(O)c(c(/C=N/N5CCN(C)CC5)c(O)c4c3C2=O)NC(=O)/C(C)=C\C=C\[C@H](C)[C@H](O)[C@@H](C)[C@@H](O)[C@@H](C)[C@H](OC(C)=O)[C@@H]1C		MIC				H37Rv	0.022 µg/mL
O=[N+]([O-])c1ccccc1CSc1nc2ccccc2[nH]1		MIC				My 331/88	250 µM
Cc1c(C(=O)Nc2ccccc2)[n+](=O)c2ccccc2n1[O-]		EC50	inside macrophages			H37Rv	<10.07 µg/mL
CC(C)C1CCc2ncc3c(c2C1=O)C(=O)C1=C(C3=O)C2CCC1C2		EC99		luminescence	pSMT1 luciferase reporter plasmid	H37Rv	39.2 µg/mL
Cn1c2c(c(=O)n(C)c1=O)S(=O)(=O)N=CN2		MIC bound		BACTEC		H37Rv	>12.5 µg/mL
CCN(CC)CCNC(=O)c1cc([N+](=O)[O-])cc([N+](=O)[O-])c1		MIC				H37Rv	5 µg/mL
CCC12CC3(C(=O)OC)OC1C(O)CN1CCc4c(n3c3cc(OC)ccc43)C12		MIC		BACTEC		H37Rv	≥12.8 µg/mL
CCCCCCCCCCCCCCCCSc1nc2ccccc2[nH]1		MIC				My 331/88	>250 µM
O=c1[nH]c2cc(Cl)c(Cl)cc2o1	12.5 µg/mL	inhibition		BACTEC		H37Rv	22%
CCc1nc(NC(C(=O)O)C(C)C)c2cc(C)sc2n1		EC50		resazurin		Erdman	3.2 µM
CCn1c(=O)c2c3c(cnc2n(CC)c1=O)C(=O)C1=C(C3=O)C2CCC1C2		EC99		luminescence	pSMT1 luciferase reporter plasmid	H37Rv	9.21 µg/mL
COc1cccc(CSc2nc3ccccc3[nH]2)c1		MIC				My 331/88	250 µM
Cc1cc2c(cc1C)[n+](=O)c(C(=O)Nc1ccccc1)c(C)n2[O-]	6.25 µg/mL	inhibition				H37Rv	0%
N#Cc1nc2cc(Cl)ccc2nc1Cl		MIC				H37Rv	>12.5 µg/mL
CCc1nc(NCCOC)c2cc(C)sc2n1		EC50		resazurin		Erdman	17 µM
CCCSc1nc2ccccc2[nH]1		MIC				My 331/88	500 µM
CCOC(=O)/C(C)=C(/[O-])C(=O)OCC.[Na+]	12.5 µg/mL	inhibition		BACTEC		H37Rv	21%
Cc1ccc2c(c1)[n+](=O)c(C(=O)Nc1ccccc1C)c(C)n2[O-]		MIC				H37Rv	>6.25 µg/mL
O=C1NC(NNC(=O)c2ccncc2)=N/C1=C\c1cccc(Cl)c1		MIC				ATCC 35838 (rifampin-resistant)	≤0.39 µg/mL
c1ccc(P(c2ccccc2)c2ccccn2)cc1		MIC99	14 d	broth dilution / visual reading		H37Rv	320 µM
COc1cc(O[C@@H]2O[C@H](CO)[C@@H](O)[C@H](O)[C@H]2O)c2c(c1)O[C@H](c1ccc(O)cc1)CC2=O		MIC		BACTEC		H37Rv	≥12.5 µg/mL
CCCCCCCn1c(=O)c2c3c(cnc2n(CCCCCCC)c1=O)C(=O)C1=C(C3=O)C2CCC1CC2		EC99		luminescence	pSMT1 luciferase reporter plasmid	H37Rv	6.89 µg/mL
Cc1cc(C(=O)O)c(C)n1-c1cccc(C(=O)O)c1	6.25 µg/mL	inhibition		BACTEC		H37Rv	9%
CCSN(SCC)C(=S)c1ncnc(N(C)O)c1[N+](=O)[O-]		MIC					7.78 µg/mL
CCn1c(=O)c2c3c(cnc2n(CC)c1=O)C(=O)C1=C(C3=O)C2CCC1CC2		EC90		luminescence	pSMT1 luciferase reporter plasmid	H37Rv	4.33 µg/mL
CC1S(=O)(=O)OCCCOS1(=O)=O	12.5 µg/mL	inhibition		BACTEC		H37Rv	-1%
CO[C@H]1/C=C/O[C@@]2(C)Oc3c(C)c(O)c4c(c3C2=O)C(=O)C(/C=N/N=C/N2CCCCC2)=C(NC(=O)/C(C)=C\C=C\[C@H](C)[C@H](O)[C@@H](C)[C@@H](O)[C@@H](C)[C@H](OC(C)=O)[C@@H]1C)C4=O		MIC				H37Rv	0.0085 µg/mL
Cc1ccc(-n2cc(-c3ccc(Cl)cc3)c3c2N=CN2NC(c4ccco4)=NC32)cc1	12.5 µg/mL	inhibition		BACTEC		H37Rv	0%
COc1ccc2c(c1)[n+](=O)c(C(=O)N1CCN(c3ccc([N+](=O)[O-])cc3)CC1)c(C)n2[O-]	6.25 µg/mL	inhibition				H37Rv	0%

For reference, 5 entries again:

{"smiles": "Nc1ncnc2c1ncn2[C@H]1O[C@H](CO)[C@@H](O)[C@@H]1O", "read-out": "MIC bound", "read by": "BACTEC", "strain": "H37Rv", "result": ">12.5 µg/mL"}
{"smiles": "COC1=C(Br)CC2(OC=C1Br)ON=C(C(=O)NCCCOc1c(Br)cc(CCN)cc1Br)[C@@H]2O", "read-out": "EC50", "result": "30 µM"}
{"smiles": "CO[C@H]1/C=C/O[C@@]2(C)Oc3c(C)c(O)c4c(O)c(c(/C=N/N5CCN(C)CC5)c(O)c4c3C2=O)NC(=O)/C(C)=C\\C=C\\[C@H](C)[C@H](O)[C@@H](C)[C@@H](O)[C@@H](C)[C@H](OC(C)=O)[C@@H]1C", "read-out": "MIC", "read by": "resazurin", "strain": "H37Rv", "result": "1 µg/mL"}
{"smiles": "COc1cc(O)c2c(=O)c(OC)c(-c3ccc(O)cc3)oc2c1OC", "read-out": "MIC", "setting": "multidrug-resistant", "read by": "resazurin", "strain": "Clinical isolates", "result": "25–50 µg/mL"}
{"smiles": "Cn1c(=O)c2c3c(cnc2n(C)c1=O)C(=O)C1=C(C3=O)C2CCC1C2", "read-out": "EC90", "read by": "luminescence", "changes": "pSMT1 luciferase reporter plasmid", "strain": "H37Rv", "result": "5.87 µg/mL"}

a–b is a range or a potency band. Rows are shuffled and stem from different studies. ECn: concentration that inhibits the pathogen or its effect by n%. A number after MIC or MFC names an inhibition level or a share of isolates. Percent inhibition refers to the dose given; in toxicity tests it is the harm to the cells. An empty or dashed field is not shown.